Results of unrelated studies side by side (data: NIAID ChemDB).

Shared fields: tests in culture; agent: HIV-1; read by: p24; measure: fold resistance

Rows are shuffled and stem from different studies. Fold resistance: result on the changed form divided by that on wild type.

smiles | cells | strain or isolate | changes | result
Cc1c(O)cccc1C(=O)N[C@@H](CSc1ccccc1)[C@H](O)CN1C[C@H]2CCCC[C@H]2C[C@H]1C(=O)NC(C)(C)C | PBMC | MM | MDR | >71
Nc1nc2c(ncn2[C@H]2CO[C@@H](CO)O2)c(=O)[nH]1 | MT-2 | LAI | RT-D67N K70R T215Y K219Q K65R | 5
CCCc1nnc(C[C@H](C[C@H](O)CN2CCN(C(C)(C)c3ncc(-c4ccc(F)cc4)o3)C[C@H]2C(=O)NCC(F)(F)F)C(=O)N[C@H]2c3ccccc3OC[C@H]2O)o1 | MT-4 | V-18 Clinical isolate | PR-L10I M36I N37D M46I R57K L63P A71V G73S I84V L90M I93L | 3.9
C[C@@H](NC(=S)Nc1ccc(Cl)cn1)c1cccc2ccccc12 | PBMC | NNRTI-resistant (RT Y181C) A17 | RT-Y181C | 43
O=c1[nH]cnc2c1ncn2[C@H]1CC[C@@H](CO)O1 | PBMC | XM-Q151M | RT-A62V V75I F77C F116Y Q151M | 3.8
C[C@@H](CNC(=S)Nc1ccc(Cl)cn1)c1ccccc1 | PBMC | NNRTI-resistant (RT Y181C K103N) A17V | RT-Y181C K103N | >500
CC(C)(C)NC(=O)[C@@H]1CN(Cc2cccnc2)CCN1C[C@@H](O)C[C@@H](Cc1ccccc1)C(=O)N[C@H]1c2ccccc2C[C@H]1O | PBMC | Clinical isolate | PR-L10I V11I T12E I15V L19I R41K M46L L63 A71T V82A L90M | 16.2
Cc1csc(NC(=S)NC[C@H](C)c2ccccc2)n1 | PBMC | NNRTI-resistant (RT Y181C) A17 | RT-Y181C | 115
CC(C)(C)NC(=O)[C@@H]1C[C@@H]2CCCC[C@@H]2CN1C[C@@H](O)[C@H](Cc1ccccc1)NC(=O)[C@H](CC(N)=O)NC(=O)c1ccc2ccccc2n1 | PBMC | TM | MDR | 18
CCCc1nnc(C[C@H](C[C@H](O)CN2CCN(C(C)(C)c3ncc(-c4cncc(OC)c4)o3)C[C@H]2C(=O)NCC(F)(F)F)C(=O)N[C@H]2c3ccccc3OC[C@H]2O)o1 | MT-4 | Q-60 Clinical isolate | PR-L10I N37S R41K M46I I54V I62V L63P A71V V77I V82A L90M I93L | 1
C[C@H](Cn1cnc2c(N)ncnc21)OCP(=O)(O)O | MT-2 | Saquinavir-resistant (G48V L90M) | RT-G48V L90M | 0.565
S=C(NCCc1cccs1)Nc1ccc(Br)cn1 | PBMC | NRTI resistant (RT L74V M41L V106A T215Y) MDR | RT-L74V M41L V106A T215Y | 0.13
Cc1nnc(C[C@H](C[C@H](O)CN2CCN(C(C)(C)c3ncc(-c4ccc(F)cc4)o3)C[C@H]2C(=O)NCC(F)(F)F)C(=O)N[C@H]2c3ccccc3OC[C@H]2O)o1 | MT-4 | V-18 Clinical isolate | PR-L10I M36I N37D M46I R57K L63P A71V G73S I84V L90M I93L | 0.504
COc1ccc(S(=O)(=O)N(CC(C)C)C[C@@H](O)[C@H](Cc2ccccc2)NC(=O)O[C@H]2CO[C@H]3OCC[C@H]32)cc1 | PBMC | Clinical isolate | PR-L10I I15V E35D N37E K45R I54V L63P A71V V82T L90M I93L C95F | 1
Fc1ccccc1CCNC(=S)Nc1ccc(Br)cn1 | PBMC | NNRTI-resistant (RT Y181C) A17 | RT-Y181C | 200
Cc1cn([C@H]2C=C[C@@H](CO)O2)c(=O)[nH]c1=O | PBMC | JSL | MDR | 9
CC(C)(c1ncc(-c2ccc(F)cc2)o1)N1CCN(C[C@@H](O)C[C@@H](Cc2nnc(-c3ccccc3)o2)C(=O)N[C@H]2c3ccccc3OC[C@H]2O)[C@H](C(=O)NCC(F)(F)F)C1 | MT-4 | V-18 Clinical isolate | PR-L10I M36I N37D M46I R57K L63P A71V G73S I84V L90M I93L | ≥7.875
Cc1cn([C@H]2C[C@H](N=[N+]=[N-])[C@@H](CO)O2)c(=O)[nH]c1=O | PBMC | RT-M184V XM-M184V | RT-M184V | 0.2
Nc1ccn([C@@H]2CO[C@H](CO)S2)c(=O)n1 | C8166 | HXB2 | RT-D67N K70R T215Y K219Q | 2.27
S=C(NCCc1ccccn1)Nc1ccc(Br)cn1 | PBMC | NRTI resistant (RT Y181C K103N) A17 variant | RT-Y181C K103N | 14285
CCNc1cccnc1N1CCN(C(=O)c2cc3cc(OC)ccc3[nH]2)CC1 | PBMC | BaL | RT-P236L | 35.6
C[C@H](CNC(=S)Nc1ccc(Br)cn1)c1ccccc1 | PBMC | NNRTI-resistant (RT Y181C) A17 | RT-Y181C | 40
Cc1nnc(C[C@H](C[C@H](O)CN2CCN(Cc3ccc(-c4ccc(Cl)cc4)o3)C[C@H]2C(=O)NCC(F)(F)F)C(=O)N[C@H]2c3ccccc3OC[C@H]2O)o1 | MT-4 | V-18 Clinical isolate | PR-L10I M36I N37D M46I R57K L63P A71V G73S I84V L90M I93L | 1
Cc1cn([C@H]2C[C@H](N=[N+]=[N-])[C@@H](CO)O2)c(=O)[nH]c1=O | MT-2 | AZT-resistant (RT D67N K70R T215F K219Q) | RT-D67N K70N T215F K219Q | 11.7
C[C@@H](CNC(=S)Nc1ccc(Br)cn1)c1ccccc1 | PBMC | NNRTI-resistant (RT Y181C) A17 | RT-Y181C | 233
Cc1csc(NC(=S)N[C@H](C)c2ccccc2)n1 | PBMC | NNRTI-resistant (RT Y181C) A17 | RT-Y181C | >164
Cc1ccc(NC(=S)NC[C@H](C)c2ccccc2)nc1 | PBMC | NNRTI-resistant (RT Y181C) A17 | RT-Y181C | 366
CCCc1nnc(C[C@H](C[C@H](O)CN2CCN(Cc3ccc(-c4ccc(Cl)cc4)o3)C[C@H]2C(=O)NCC(F)(F)F)C(=O)N[C@H]2c3ccccc3OC[C@H]2O)o1 | MT-4 | Q-60 Clinical isolate | PR-L10I N37S R41K M46I I54V I62V L63P A71V V77I V82A L90M I93L | ≥2
C[C@@H](CNC(=S)Nc1ccc(Cl)cn1)c1ccccc1 | PBMC | NNRTI-resistant (RT Y181C K103N) A17V | RT-Y181C K103N | 530
CC(C)CN(C[C@@H](O)[C@H](Cc1ccccc1)NC(=O)O[C@H]1CCOC1)S(=O)(=O)c1ccc(N)cc1 | PBMC | Clinical isolate | PR-L10I V11I T12E I15V L19I R41K M46L L63 A71T V82A L90M | 12.4
CC(C)Nc1cccnc1N1CCN(C(=O)c2cc3cc(NS(C)(=O)=O)ccc3[nH]2)CC1 | Macrophage + Monocytes/macrophages | BaL | RT-V106A | 160
Cc1cn([C@H]2C[C@H](N=[N+]=[N-])[C@@H](CO)O2)c(=O)[nH]c1=O | MT-2 | LAI | RT-D67N K70R T215Y K219Q L74V | 6.3
Cc1cn([C@H]2C[C@H](N=[N+]=[N-])[C@@H](CO)O2)c(=O)[nH]c1=O | PBMC | MM | MDR | 41
Cc1c(O)cccc1C(=O)N[C@@H](CSc1ccccc1)[C@H](O)CN1C[C@H]2CCCC[C@H]2C[C@H]1C(=O)NC(C)(C)C | PBMC | Clinical isolate | PR-L10I K43T M46L I54L L63P A71T V82A L90M Q92K | 17.8
O=c1[nH]cnc2c1ncn2[C@H]1CC[C@@H](CO)O1 | PBMC | TM | MDR | 5
O=C(N[C@H]1c2ccccc2OC[C@H]1O)[C@H](Cc1nnco1)C[C@H](O)CN1CCN(Cc2ccc(-c3ccc(Cl)cc3)o2)C[C@H]1C(=O)NCC(F)(F)F | MT-4 | K-60 Clinical isolate | PR-L10I M46I I54V Q58E L63P I64V V77I V82F I84V L90M I93L | 1
CCc1cc(NCc2nc3c(Cl)ccc(Cl)c3o2)c(=O)[nH]c1C | MT-4 | NL4-3 | RT-K101E | 8
Cc1csc(NC(=S)NC[C@H](C)c2ccccc2)n1 | PBMC | NNRTI-resistant (RT Y181C) A17 | RT-Y181C | 124

A second listing of 3 rows from above:

smiles | cells | strain or isolate | changes | result
CCNc1cccnc1N1CCN(C(=O)c2cc3cc(OC)ccc3[nH]2)CC1 | PBMC | BaL | RT-P236L | 35.6
O=C(N[C@H]1c2ccccc2OC[C@H]1O)[C@H](Cc1nnco1)C[C@H](O)CN1CCN(Cc2ccc(-c3ccc(Cl)cc3)o2)C[C@H]1C(=O)NCC(F)(F)F | MT-4 | K-60 Clinical isolate | PR-L10I M46I I54V Q58E L63P I64V V77I V82F I84V L90M I93L | 1
Cc1csc(NC(=S)NC[C@H](C)c2ccccc2)n1 | PBMC | NNRTI-resistant (RT Y181C) A17 | RT-Y181C | 124